# Taken from: PubChem BioAssay AID1224833 (University of Georgia, 2016)
# Aim: 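Host factors restraining rotavirus as candidate antiviral genes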 (primary screen)
# System: monkey MA104 kidney cells
# Reagent: siRNA pool against human genes, 50 nM
# Duration: 48 h knock-down before infection; read 24 h after infection
# Conditions: infection with rotavirus strain RV3 two days after transfection; infectious dose for this stage not given
# Read-out: 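z-score of rotavirus antigen signal per well, from a fluorescent immunoassay, relative to non-targeting control wells on the same plate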
# Scale: z-score vs non-targeting control: higher = more rotavirus replication than with non-targeting control
# Rule for the call: In these data the active calls have z-score vs non-targeting control at about -1 or lower, or at about 1 or higher
# Meaning of the calls: active = z-score beyond 1 either way; inactive = z-score within 1 of zero
# The whole screen tested about 12,000 reagents; this is a random part of them. Over the whole deposit, about 5,600 (46%) were called active. 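Active calls cover z-scores past 1 in both directions, so they include lowered as well as raised rotavirus replication.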
z-score vs non-targeting control,outcome,target
1.05,active,GPR85 (GeneID 54329)
-0.154,inactive,MARVELD2 (GeneID 153562)
-0.892,inactive,CDC20B (GeneID 166979)
0.308,inactive,USHBP1 (GeneID 83878)
0.968,inactive,DTWD2 (GeneID 285605)
0.612,inactive,ZC3H3 (GeneID 23144)
-0.612,inactive,ACBD7 (GeneID 414149)
0.868,inactive,TAF9B (GeneID 51616)
-0.323,inactive,SPAG9 (GeneID 9043)
0.391,inactive,RTP2 (GeneID 344892)
-0.709,inactive,PIGZ (GeneID 80235)
0.28,inactive,GOLPH3 (GeneID 64083)
-1.3,active,SLC25A20 (GeneID 788)
-0.647,inactive,LCP1 (GeneID 3936)
-1.32,active,HSD17B8 (GeneID 7923)
-0.579,inactive,TMEM141 (GeneID 85014)
0.936,inactive,PCDHB13 (GeneID 56123)
0.384,inactive,EMP2 (GeneID 2013)
-1.32,active,GDNF (GeneID 2668)
0.172,inactive,CELF3 (GeneID 11189)
0.811,inactive,CHN2 (GeneID 1124)
-0.932,inactive,ZNF582 (GeneID 147948)
0.5,inactive,FAT1 (GeneID 2195)
-0.875,inactive,PSMD10 (GeneID 5716)
-1.45,active,KRTAP10-10 (GeneID 353333)
-1.4,active,TRMT1 (GeneID 55621)
-0.636,inactive,CC2D2B (GeneID 387707)
-0.558,inactive,OR52E4 (GeneID 390081)
-0.362,inactive,HINFP (GeneID 25988)
-1.13,active,WDR6 (GeneID 11180)
-1.35,active,NEUROD1 (GeneID 4760)
0.602,inactive,PCSK6 (GeneID 5046)
-0.163,inactive,CLLU1-AS1 (GeneID 574016)
-1.24,active,PIF1 (GeneID 80119)
-0.401,inactive,NELFCD (GeneID 51497)
0.859,inactive,IGFBP7 (GeneID 3490)
-0.927,inactive,NR1H3 (GeneID 10062)
-0.839,inactive,ZNF565 (GeneID 147929)
-0.0062,inactive,ZMYM3 (GeneID 9203)
1.08,active,SRPRB (GeneID 58477)
-1.81,active,ZNF337 (GeneID 26152)
-0.613,inactive,TPMT (GeneID 7172)
1.06,active,CT47A11 (GeneID 255313)
-0.939,inactive,PCDHB5 (GeneID 26167)
1.99,active,RPA1 (GeneID 6117)
-0.265,inactive,ICAM4 (GeneID 3386)
-0.554,inactive,SGCZ (GeneID 137868)
2.66,active,ZNF274 (GeneID 10782)
0.484,inactive,ZMYM4 (GeneID 9202)
1.16,active,MGARP (GeneID 84709)
0.158,inactive,CNIH1 (GeneID 10175)
-0.585,inactive,PGLYRP1 (GeneID 8993)
1.27,active,MAP6D1 (GeneID 79929)
-0.613,inactive,NYNRIN (GeneID 57523)
0.279,inactive,RHBDD2 (GeneID 57414)
-0.179,inactive,LIN37 (GeneID 55957)
-0.662,inactive,SENP2 (GeneID 59343)
2.19,active,GALNT13 (GeneID 114805)
-2.49,active,ZNF674 (GeneID 641339)
0.192,inactive,DZIP1 (GeneID 22873)
1.27,active,TMEM135 (GeneID 65084)
1.96,active,ELN (GeneID 2006)
-0.722,inactive,PARP1 (GeneID 142)
1.21,active,VEPH1 (GeneID 79674)
-0.783,inactive,NPR1 (GeneID 4881)
-0.886,inactive,OR10J3 (GeneID 441911)
-1.12,active,DCAF8L1 (GeneID 139425)
-0.299,inactive,COL10A1 (GeneID 1300)
-0.413,inactive,FAM181A (GeneID 90050)
-1.02,active,MSH4 (GeneID 4438)
-1.41,active,ZXDC (GeneID 79364)
-0.246,inactive,CABP2 (GeneID 51475)
-1.08,active,TENT2 (GeneID 167153)
-3.23,active,CLDN2 (GeneID 9075)
0.734,inactive,SYT2 (GeneID 127833)
-1.38,active,OTC (GeneID 5009)
-0.597,inactive,TCP10L (GeneID 140290)
-0.471,inactive,OR2D2 (GeneID 120776)
2.24,active,GGT5 (GeneID 2687)
-1.87,active,COX7B2 (GeneID 170712)
-0.13,inactive,RCSD1 (GeneID 92241)
-1.04,active,SAE1 (GeneID 10055)
1.68,active,SLC22A7 (GeneID 10864)
-0.643,inactive,BMS1 (GeneID 9790)
1.8,active,SSTR3 (GeneID 6753)
-0.086,inactive,PSAP (GeneID 5660)
-1.37,active,FAM20B (GeneID 9917)
-1.13,active,H1-8 (GeneID 132243)
-1.16,active,VAT1 (GeneID 10493)
-0.179,inactive,CCDC183 (GeneID 84960)
-1.4,active,SFRP4 (GeneID 6424)
-0.866,inactive,PCBP4 (GeneID 57060)
0.583,inactive,MOCS3 (GeneID 27304)
1.52,active,LONP1 (GeneID 9361)
0.742,inactive,HSD17B12 (GeneID 51144)
1.64,active,PITX3 (GeneID 5309)
-1.71,active,C10orf55 (GeneID 414236)
2.05,active,CPT1A (GeneID 1374)
-1.51,active,GGA1 (GeneID 26088)
-0.784,inactive,FCRL5 (GeneID 83416)
1.66,active,TIMM17B (GeneID 10245)
1.43,active,CCT6A (GeneID 908)
-0.771,inactive,IL1R2 (GeneID 7850)
1,inactive,RPS21 (GeneID 6227)
-1.2,active,ADGRB3 (GeneID 577)
0.456,inactive,GSN (GeneID 2934)
1.41,active,NMBR (GeneID 4829)
-1.97,active,CIZ1 (GeneID 25792)
-1.79,active,IARS2 (GeneID 55699)
2.02,active,BEX4 (GeneID 56271)

Already shown: 18 of the entries above.
z-score vs non-targeting control,outcome,target
-1.13,active,WDR6 (GeneID 11180)
-1.35,active,NEUROD1 (GeneID 4760)
0.602,inactive,PCSK6 (GeneID 5046)
-0.163,inactive,CLLU1-AS1 (GeneID 574016)
-1.24,active,PIF1 (GeneID 80119)
-0.401,inactive,NELFCD (GeneID 51497)
0.859,inactive,IGFBP7 (GeneID 3490)
-0.927,inactive,NR1H3 (GeneID 10062)
-0.839,inactive,ZNF565 (GeneID 147929)
-0.0062,inactive,ZMYM3 (GeneID 9203)
1.08,active,SRPRB (GeneID 58477)
-1.81,active,ZNF337 (GeneID 26152)
-0.613,inactive,TPMT (GeneID 7172)
1.06,active,CT47A11 (GeneID 255313)
-0.939,inactive,PCDHB5 (GeneID 26167)
1.99,active,RPA1 (GeneID 6117)
-0.265,inactive,ICAM4 (GeneID 3386)
-0.554,inactive,SGCZ (GeneID 137868)
